Several values for one entry are separate records, joined by “and”; a condition that tells them apart may be missing. Identical values can stand only once. Like-named read-outs stand apart in the source and are kept apart here. Marks after values point to notes of the source that are not given here.
Assays:
[1] = tested on: A/Mississippi/03/01 WT; assay: microbe, parasite or virus in culture; assay type: cell-based; settings: unidentified influenza virus; Table 8; means of at least three determinations
[2] = tested on: A/Townsville/74/2011; assay: microbe, parasite or virus in culture; assay type: cell-based; settings: unidentified influenza virus; Table 8; means of at least three determinations
[3] = tested on: B/Sichuan/379/99 (FluB); settings: mouse, in vivo
[4] = tested on: A/Perth/261/2009; assay: microbe, parasite or virus in culture; assay type: cell-based; settings: unidentified influenza virus; Table 8; means of at least three determinations
[5] = tested on: A/Victoria/503/06; assay: microbe, parasite or virus in culture; assay type: cell-based; settings: unidentified influenza virus; Table 8; means of at least three determinations
[6] = tested on: A/Sydney/5/97; assay: microbe, parasite or virus in culture; assay type: cell-based; settings: unidentified influenza virus; Table 8; means of at least three determinations
[7] = tested on: B/Townsville/2/2011; assay: microbe, parasite or virus in culture; assay type: cell-based; settings: unidentified influenza virus; Table 8; means of at least three determinations
[8] = tested on: A/California/04/2009 (H1N1); settings: mouse, in vivo
[9] = tested on: A/Sydney/250/99 (H1N1); settings: for MTT colorimetric assay reading, single wells / % over Control (no Infection) / MTT colorimetric assay reading, Average: 5 μg/mL, 72 h
[10] = tested on: A/Duck/MN/1525/81 (H5N1); settings: mouse, in vivo
[11] = tested on: influenza A/California/04/2009 (H1N1pdm) virus; settings: mouse, in vivo
[12] = tested on: influenza A/PR/8 (H1N1) virus (500 pfu/mouse); settings: in vivo, ip
[13] = tested on: A/Sydney/5/97 (H3N2); settings: for MTT colorimetric assay reading, single wells / % over Control (no Infection) / MTT colorimetric assay reading, Average: 5 μg/mL, 72 h
[14] = tested on: A/Victoria/3/75 (H3N2); settings: mouse, in vivo
[15] = tested on: A/Sydney/250/99; settings: Condition 6, 0.5 μg/mL
[16] = tested on: A/Victoria/170/2012; assay: microbe, parasite or virus in culture; assay type: cell-based; settings: unidentified influenza virus; Table 8; means of at least three determinations
[17] = tested on: influenza A/PR/8 (H1N1) virus (500 pfu/mouse); settings: in vivo
[18] = tested on: A/Sydney/250/99; assay: microbe, parasite or virus in culture; assay type: cell-based; settings: unidentified influenza virus; Table 8; means of at least three determinations
[19] = tested on: A/Solomon Island/3/06; assay: microbe, parasite or virus in culture; assay type: cell-based; settings: unidentified influenza virus; Table 8; means of at least three determinations
[20] = tested on: influenza A/PR/8 (H1N1) virus (500 pfu/mouse)
[21] = Condition 5 (compound 30 min, then trypsin 30 min, R.T.)
[22] = Condition 6 (virus, compound and trypsin mixed 1 hr, R.T.)
[23] = Condition 7 (virus mixed with compound 1 hr, R.T.)

CC(=O)N[C@H]1[C@H]([C@H](O)[C@H](O)CO)OC(C(=O)O)=C[C@@H]1N=C(N)N [Zanamivir, reference compound]
EC50 [1]: > 0.066 µM
EC50 [2]: > 0.015 µM
Mice survivors/total [3]: 9/10
EC50 [4]: 0.0066 µM
EC50 [5]: > 0.198 µM
EC50 [6]: > 0.024 µM
EC50 [7]: > 1.79 µM
Mice survivors/total [8]: 2/10
extracellular neutralisation of virus by pre-treatment [9]: did not affect the infectivity
MTT colorimetric assay reading, single wells [9, 21]: 0.419 and 0.409 and 0.625
% over Control (no Infection) ([9]; Condition 5): 21%
MTT colorimetric assay reading, Average ([9]; Condition 5): 0.484
MTT colorimetric assay reading, single wells [9, 22]: 0.446 and 0.512 and 0.443
% over Control (no Infection) ([9]; Condition 6): 21%
MTT colorimetric assay reading, Average ([9]; Condition 6): 0.467
MTT colorimetric assay reading, single wells [9, 23]: 0.663 and 0.791
% over Control (no Infection) ([9]; Condition 7): 32%
MTT colorimetric assay reading, Average ([9]; Condition 7): 0.727
Mice survivors/total [10]: 7/10
Survivors/Total [11]: 0/9^c and 0/10
Survivors/Total [12]: 0/5^c
extracellular neutralisation of virus by pre-treatment [13]: did not affect the infectivity
MTT colorimetric assay reading, single wells [13, 21]: 0.329 and 0.325 and 0.303
% over Control (no Infection) ([13]; Condition 5): 12%
MTT colorimetric assay reading, Average ([13]; Condition 5): 0.319
MTT colorimetric assay reading, single wells [13, 22]: 0.32 and 0.336 and 0.324
% over Control (no Infection) ([13]; Condition 6): 13%
MTT colorimetric assay reading, Average ([13]; Condition 6): 0.327
MTT colorimetric assay reading, single wells [13, 23]: 0.322 and 0.298 and 0.293
% over Control (no Infection) ([13]; Condition 7): 12%
MTT colorimetric assay reading, Average ([13]; Condition 7): 0.304
Mice survivors/total [14]: 8/10 and 3/10
% (of Control) ([15]; 1 min): 33%
assay reading, Average ([15]; 1 min): 0.568
% (of Control) ([15]; 5 min): 29%
assay reading, Average ([15]; 5 min): 0.502
assay reading, single wells ([15]; 5 min): 0.394 and 0.609
% (of Control) ([15]; 10 min): 24%
assay reading, Average ([15]; 10 min): 0.407
assay reading, single wells ([15]; 10 min): 0.326 and 0.487
% (of Control) ([15]; 20 min): 35%
assay reading, Average ([15]; 20 min): 0.595
assay reading, single wells ([15]; 20 min): 0.461 and 0.728
% (of Control) ([15]; 25 min): 20%
assay reading, Average ([15]; 25 min): 0.349
assay reading, single wells ([15]; 25 min): 0.375 and 0.322
% (of Control) ([15]; 30 min): 21%
assay reading, Average ([15]; 30 min): 0.355
assay reading, single wells ([15]; 30 min): 0.357 and 0.353
EC50 [16]: > 0.596 µM
Mice survivors/total [17]: 0/5
EC50 [18]: > 0.198 µM
EC50 [19]: > 0.044 µM
Survivors/Total ([20]; Table 38, […], dose not given): 0/5^c
Survivors/Total ([20]; mouse, in vivo): 0/5^c

Source: patent publication US11007274B2, “Compounds for medicinal applications” (Ausvir Therapeutics Pty LTD, priority 2015, dated 2021)
